Pooled drug test results. Numbers come from NIAID ChemDB, via PubChem.

Shared fields: whole-cell or culture tests; species: Mycobacterium marinum

A number after MIC or MFC names an inhibition level or a share of isolates. An empty or dashed field is not shown. Rows are shuffled and stem from different studies.

{"compound": "O=C(N[C@H](C(=O)Oc1ccc(Cl)cc1C(=O)Nc1ccc(Br)cc1)C1CCCCC1)OCc1ccccc1", "endpoint": "MIC100", "method": "broth dilution", "strain": "CAMP 5644", "value": "26.06 µM"}
{"compound": "C=C1C(=O)[C@@]23C(=O)O[C@H]4CCC(C)(C)[C@H]5C(=O)OC[C@@]45[C@@H]2CC[C@@H]1[C@H]3OC(=O)c1ccc(F)cc1", "endpoint": "MIC", "method": "resazurin", "strain": "ATCC 927", "value": "8 µg/mL"}
{"compound": "Oc1cc(OCc2ccccc2)ccc1-c1n[nH]c(C(F)(F)F)c1-c1ccccc1", "endpoint": "MIC", "method": "visual reading", "value": "25 µg/mL"}
{"compound": "C=C1C(=O)[C@@]23C(=O)O[C@H]4CCC(C)(C)[C@H]5[C@H](O)OC[C@@]45[C@@H]2CC[C@@H]1[C@H]3O", "endpoint": "MIC", "method": "resazurin", "strain": "ATCC 927", "value": ">64 µg/mL"}
{"compound": "COc1ccc(-c2n[nH]c(C(F)(F)F)c2-c2ccccc2OC)c(O)c1", "endpoint": "MIC", "method": "visual reading", "value": "50 µg/mL"}
{"compound": "CCCCCCCCCCCCCCCCNC(=O)NC(CCC(=O)O)(CCC(=O)O)CCC(=O)O", "endpoint": "MIC", "strain": "ATCC 927", "value": "216 µg/mL"}
{"compound": "C=C1C(=O)[C@@]23C(=O)O[C@H]4CCC(C)(C)[C@H]5[C@H](O)OC[C@@]45[C@@H]2CC[C@@H]1[C@H]3OC(=O)c1ccccc1", "endpoint": "MIC", "method": "resazurin", "strain": "ATCC 927", "value": "4 µg/mL"}
{"compound": "COc1ccc(-c2c(-c3ccc(O)cc3O)n[nH]c2C(F)(F)F)cc1OC", "endpoint": "MIC", "method": "visual reading", "value": ">50 µg/mL"}
{"compound": "C[C@@H]1CN(c2c(F)c(N)c3c(=O)c(C(=O)O)cn(C4CC4)c3c2F)C[C@H](C)N1", "endpoint": "MIC", "method": "broth dilution / visual reading", "strain": "ATCC 927", "value": "2 µg/mL"}
{"compound": "CCCCCCCCC(CCCCCCCC)OC(=O)NC(CCC(=O)O)(CCC(=O)O)CCC(=O)O", "endpoint": "MIC", "strain": "ATCC 927", "value": "283 µg/mL"}
{"compound": "Cc1ccc(COc2ccc(-c3n[nH]c(C(F)(F)F)c3-c3cccc4ccccc34)c(O)c2)cc1", "endpoint": "MIC", "method": "visual reading", "value": ">50 µg/mL"}
{"compound": "C=C1C(=O)[C@@]23C(=O)O[C@H]4CCC(C)(C)[C@H]5[C@H](O)OC[C@@]45[C@@H]2CC[C@@H]1[C@H]3OC(=O)c1cc2ccccc2[nH]1", "endpoint": "MIC", "method": "resazurin", "strain": "ATCC 927", "value": "8 µg/mL"}
{"compound": "CC(C)[C@H](NC(=O)OCc1ccccc1)C(=O)Oc1ccc(Cl)cc1C(=O)Nc1ccc([N+](=O)[O-])cc1", "endpoint": "MIC100", "method": "broth dilution", "strain": "CAMP 5644", "value": "7.6 µM"}
{"compound": "O=c1cc(-c2ccccc2)c2ccc(Cl)cc2o1", "endpoint": "MIC90", "method": "resazurin", "strain": "ATCC 927", "value": ">100 µg/mL"}
{"compound": "COc1ccc(-c2[nH]ncc2-c2ccc(Cl)cc2)c(O)c1", "endpoint": "MIC", "method": "visual reading", "value": ">50 µg/mL"}
{"compound": "CCCCCCCCCCCCCCCCCCOC(=O)NC(C)(CCC(=O)O)CCC(=O)O", "endpoint": "MIC", "strain": "ATCC 927", "value": "138 µg/mL"}
{"compound": "CCOc1ccc(-c2n[nH]c(C(F)(F)F)c2-c2ccc(OC)cc2)c(O)c1", "endpoint": "MIC", "method": "visual reading", "value": "50 µg/mL"}
{"compound": "Cc1c(C)c(C)[c-](C)c1C.N[C@H](C(=O)[O-])c1ccccc1.[Cl][Rh+2]", "endpoint": "MIC", "strain": "ATCC 927", "value": ">250 µg/mL"}
{"compound": "CCCCCCCCCCN(CCCCCCCCCC)C(=O)NC(CCC(=O)O)(CCC(=O)O)CCC(=O)O", "endpoint": "MIC", "strain": "ATCC 927", "value": "71 µg/mL"}
{"compound": "O=[N+]([O-])c1ccc(COc2ccc(-c3n[nH]c(C(F)(F)F)c3-c3ccc(Br)cc3)c(O)c2)cc1", "endpoint": "MIC", "method": "visual reading", "value": "12.5 µg/mL"}
{"compound": "Cc1c(OCC(F)(F)F)ccnc1CSc1nc2ccccc2[nH]1", "endpoint": "MIC90", "method": "resazurin", "strain": "M", "value": "100 µM"}
{"compound": "C=C1C(=O)[C@@]23C(=O)O[C@H]4CCC(C)(C)[C@H]5C(=O)OC[C@@]45[C@@H]2CC[C@@H]1[C@H]3OC(=O)c1cc2ccccc2[nH]1", "endpoint": "MIC", "method": "resazurin", "strain": "ATCC 927", "value": "8 µg/mL"}

A second listing of 2 rows from above:

compound,endpoint,method,strain,value
O=[N+]([O-])c1ccc(COc2ccc(-c3n[nH]c(C(F)(F)F)c3-c3ccc(Br)cc3)c(O)c2)cc1,MIC,visual reading,-,12.5 µg/mL
Cc1c(C)c(C)[c-](C)c1C.N[C@H](C(=O)[O-])c1ccccc1.[Cl][Rh+2],MIC,-,ATCC 927,>250 µg/mL